Data on 5 compounds can be found in patent US10065989B2, “Molecular sleds and uses thereof” (The Broad Institute, Inc., priority 2012, dated 2018).

Values joined by “and” are separate entries in the source; they are usually repeats but may differ in a detail not shown here. Identical values can stand only once.

For the experiment, the target named is adenovirus proteinase (AVP) (Human adenovirus C serotype 2, UniProt P03252). The experiment is classed as biochemical.
Consider `CC(C)C[C@H](NC(=O)[C@H](CO)NC(=O)[C@@H](N)CCC(N)=O)C(=O)N[C@@H](CCCCN)C(=O)N[C@@H](CCCNC(=N)N)C(=O)N[C@@H](CCCNC(=N)N)C(=O)N[C@@H](CCCNC(=N)N)C(=O)N[C@@H](CS)C(=O)N[C@@H](Cc1ccccc1)C(=O)O`, for which the Max is given as 13 ± 0.08.
In the case of `CC(C)C[C@H](NC(=O)[C@@H](N)CO)C(=O)N[C@@H](CCCCN)C(=O)N[C@@H](CCCNC(=N)N)C(=O)N[C@@H](CCCNC(=N)N)C(=O)N[C@@H](CCCNC(=N)N)C(=O)N[C@@H](CS)C(=O)N[C@@H](Cc1ccccc1)C(=O)O` it was 22 ± 4.7 and 14 ± 0.5; in that of `CC(C)C[C@H](NC(=O)[C@H](CO)NC(=O)[C@H](CCC(N)=O)NC(=O)[C@@H](N)C(C)C)C(=O)N[C@@H](CCCCN)C(=O)N[C@@H](CCCNC(=N)N)C(=O)N[C@@H](CCCNC(=N)N)C(=O)N[C@@H](CCCNC(=N)N)C(=O)N[C@@H](CS)C(=O)N[C@@H](Cc1ccccc1)C(=O)O`, 23 ± 2.15; in that of `N=C(N)NCCC[C@H](NC(=O)[C@H](CCCNC(=N)N)NC(=O)[C@H](CCCNC(=N)N)NC(=O)[C@@H](N)CCCCN)C(=O)N[C@@H](CS)C(=O)N[C@@H](Cc1ccccc1)C(=O)O` [KRRRCF], 7.7 ± 0.5.
`N=C(N)NCCC[C@H](NC(=O)[C@H](CCCNC(=N)N)NC(=O)[C@@H](N)CCCNC(=N)N)C(=O)N[C@@H](CS)C(=O)N[C@@H](Cc1ccccc1)C(=O)O` [RRRCF] came in with a Max of 1.7 ± 0.12.
